Assay results taken from patent publication US20040059104A1, “Nucleotide mimics and their prodrugs” (priority 2002, published 2004).

What follows are compounds tested on HIV-1RF (assay: Anti-HIV-1 cytoprotection assay in CEM-SS cells). Conditions: TC50/IC50 in CEM-SS cells.
Format: cell-based
Protocol: ollowing paper: Structure-Activity and Cross-Resistance unodeficiency Virus Type 1-Specific ckheit, Jr. et al., Antimicrobial Agents and s were evaluated in CEM-SS cell cultures V-1RF at an MOI of approximately 0.01. At he soluble tetrazolium-based dye MTS viability and quantify compound toxicity of metabolically active cells to yield a soluble analysis of cell viability and compound
Efficacy Evaluation in CEM-SS Cells Anti-HIV-1 Cytoprotection Assay
Cell Preparation—CEM-SS cells were passaged in T-75 flasks prior to use in the antiviral assay. On the day preceding the assay, the cells were split 1:2 to assure they were in an exponential growth phase at the time of infection. Total cell and viability quantification was performed using a hemacytometer and trypan blue exclusion. Cell viability was greater than 95% for the cells to be utilized in the assay. The cells were resuspended at 5×10^4 cells/ml in tissue culture medium and added to the drug-containing microtiter plates in a volume of 50 μl.
Virus Preparation—The virus used for these tests was the lymphocytropic virus strain HIV-1RF. This virus was obtained from the NIH AIDS Research and Reference Reagent Program and was grown in CEM-SS cells for the production of stock virus pools. For each assay, a pre-titered aliquot of virus was removed from the freezer (−80° C.) and allowed to thaw slowly to room temperature in a biological safety cabinet. The virus was resuspended and diluted into tissue culture medium such that the amount of virus added to each well in a volume of 50 μl was the amount determined to give between 85 to 95% cell killing at 6 days post-infection.
At assay termination, the assay plates were stained with the soluble tetrazolium-based dye MTS (CellTiter Reagent Promega) to determine cell viability and quantify compound toxicity. MTS is metabolized by the mitochondrial enzymes of metabolically active cells to yield a soluble formazan product, allowing the rapid quantitative analysis of cell viability and compound cytotoxicity. […] At termination of the assay, 20 μL of MTS reagent was added per well. The microtiter plates were then incubated 4-6 hrs at 37° C. for the HIV cytoprotection assay; the incubation intervals were chosen based on empirically determined times for optimal dye reduction. Adhesive plate sealers were used in place of the lids, the sealed plate was inverted several times to mix the soluble formazan product and the plate was read spectrophotometrically at 490 nm with a Molecular Devices Vmax plate reader.

With “3′-Azido-3′-deoxythymidine 5′-α-P-borano-β,γ-difluoromethylene-γ-O-palmityltriphosphate [Compound 41]” as the compound, how does the “Therapeutic Index” value read?
The value was 8.53.

“3′-Azido-3′-deoxythymidine 5′-α-P-borano-γ-O-(S-pivaloyl-2-thioethyl)-β,γ-(difluoromethylene)triphosphate [Compound 70]” was tested. Which “Therapeutic Index” value did it give?
The value was greater than 210.89.

For `[BH3-][P+](O)(OCC1OC(n2cc(C)c(=O)[nH]c2=O)CC1N=[N+]=[N-])OP(=O)(O)C(F)(F)P(=O)(O)O` (single isomer, unassigned) [Compound 27-isomer 1, 3′-Azido-3′-deoxythymidine 5′-α-P-borano-β,γ-(difluoromethylene)triphosphate], which “Therapeutic Index” value is on record?
The value was 122.32.

Which “Therapeutic Index” value does the source give for `BP(=O)(OC[C@H]1O[C@@H](n2cc(C)c(=O)[nH]c2=O)C[C@H]1N=[N+]=[N-])OP(=O)(O)C(F)(F)P(=O)(O)Oc1ccccc1` (stereo partly drawn) [Compound 42, 3′-Azido-3′-deoxythymidine 5′-α-P-borano-β,γ-difluoromethylene-γ-O-phenyltriphosphate] here?
Its value is 12.64.

`BP(=O)(OC[C@H]1O[C@@H](n2cc(C)c(=O)[nH]c2=O)C[C@H]1N=[N+]=[N-])OP(=O)(O)C(F)(F)P(=O)(O)OCOC(=O)C(C)(C)C` (stereo partly drawn) [Compound 69, 3′-Azido-3′-deoxythymidine 5′-α-P-borano-γ-O-(pivaloyloxymethyl)-β,γ-(difluoromethylene)triphosphate] was tested. Which “Therapeutic Index” value did it give?
Its value is 40.75.
